Results as given in US12404262B2 (priority 2021, dated 2025).

What was measured:
[1] = 1.0% DMSO, 24-hour incubation at ambient temperature, maximum theoretical 100 μM
[2] = Solubility in simulated intestinal fluids (FaSSIF/FeSSIF); conditions: 25° C.

For “((di-tert-butoxyphosphoryl)oxy)methyl (2-(3-(4-chloro-7-(2-((S)-1-(2-((3bS,4aR)-5,5-difluoro-3-(trifluoromethyl)-3b,4,4a,5-tetrahydro-1H-cyclopropa[3,4]cyclopenta[1,2-c]pyrazol-1-yl)acetamido)-2-(3,5-difluorophenyl)ethyl)-6-(3-methyl-3-(methylsulfonyl)but-1-yn-1-yl)pyridin-3-yl)-1-(2,2,2-trifluoroethyl)-1H-indazol-3-yl)-1-methyl-3-(methylsulfonyl)ureido)ethyl)carbamate”, the “pH 2 solubility” value ([1]; 0.1N HCl, first value of the cell) was 1 μM, the “pH 7 solubility” value ([1]; 1×PBS buffer (pH 7.4), second value of the cell) was 83 μM and the FaSSIF solubility ([2]; fasted state simulated intestinal fluid, first value of the cell FaSSIF/FeSSIF) was 490 µg/mL. For the same substance, the FeSSIF solubility ([2]; fed state simulated intestinal fluid, second value of the cell FaSSIF/FeSSIF) was 660 µg/mL.
